Experimental data: PubChem BioAssay AID504761 (Drosophila RNAi Screening Center, 2011)

Assay: 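Genome-wide fly cell screen for genes dengue virus requires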 (primary screen)
Cell system: D.Mel-2 cells from Drosophila
Reagents: long dsRNA against Drosophila genes
Conditions: infection with dengue virus type 2; dose and infection time not stated
Read-out: 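Cells stained for dengue envelope protein and imaged; percent of infected cells per well on duplicate plates, ranked by infection, with stained nuclei counted for cell number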
Reading the numbers: infection score: higher = more virus-infected cells; cell count: higher = more cells in the well
Hit rule: 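Low infection ranks in the two replicates (chance level up to 0.065) followed by a retest with a 1.5-fold or larger significant decrease, p below 0.05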
Meaning of the calls: active = confirmed: knock-down lowers infection; inactive = not picked or not confirmed
The screen tested about 22,000 reagents; shown is an unselected part of those that have a named target and a result. Over the whole deposit, 116 (0.52%) got an active call. 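Calls depend on retest data that are not deposited; infection was ranked per plate without normalising between plates; the unit of the infection score is not given.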 Raw values are not corrected between plates. Entries without a mark were called inactive. A plus sign joins genes that one reagent is predicted to hit. Not stated in the record: the amount of reagent, the time to read-out.

Gene	amplicon	infection score, replicate 1	infection score, replicate 2	cell count, replicate 1	cell count, replicate 2
Hacd2	DRSC03181	8.93	17.3	6168	5589
CG14017	DRSC02348	1.53	3.42	5897	6979
Cpr51A	DRSC05969	1.95	12.5	6785	5794
Spf45	DRSC03826	11.3	9.95	6679	6676
CG43901	DRSC19397	4.74	4.5	6492	6794
CG43901	DRSC27031	3.97	7.62	6908	5791
Mvk + CG33672 + spt4	DRSC05356	2.28	1.93	5925	6150
Mvk + CG33672 + spt4	DRSC06628	3.25	12	6483	6441
Atg8b	DRSC14501	9.39	1	3057	6530
Atg8b	DRSC24428	9.45	16.1	5638	5682
betaTub65B	DRSC11393	1.81	9.81	5637	5777
Gasp	DRSC12349		37.8	449	5148
Cyp4p3	DRSC07374	13.1	6.34	5969	6566
Cyp4p3	DRSC26733	4.73	39.5	6761	2854
CG5846	DRSC02904	4.99	3.23	6212	6368
Sym	DRSC12301	6.2	4.52	5544	6149
Sym	DRSC29255	7.62	13.8	998	6078
Abd-B	DRSC14098	5.57	4.99	5692	6934
Abd-B	DRSC14337	11.8	4.04	5572	6938
Abd-B	DRSC28796	12.8	0.87	2219	804
kz	DRSC18786	8.23	8.11	1580	1024
CG33124	DRSC00298	2.53	4.5	6518	6533
CG13931	DRSC08400	2.06	0.58	5924	6199
CG13931	DRSC25534	2.24	4.15	6470	6379
AIF	DRSC00696	7.37	19.1	5618	4265
ND-B22	DRSC03193	11.5	7.6	5590	6174
ND-B22	DRSC28526	0.24	31.5	425	4280
CG13436	DRSC06396	1.74	3.39	6041	6483
tomboy40	DRSC04918	34.7	25.5	6102	6081
tomboy40	DRSC28442		32.4	309	5653
Msh6	DRSC10759	0.88	2.91	6228	6295
CG15699 (retired record)	DRSC06571	38.8	14.3	6017	7007
sisA	DRSC20374	1.16	3.11	6741	7043
sisA	DRSC29331	12.8		3312	388
CG16959	DRSC10230	17.7	12.3	5919	5906
Hou	DRSC20001	1.85	2.76	6657	7053
Hou	DRSC22347	6.4	14.2	5613	6452
Hou	DRSC26803	15.2	9.47	5899	6419
Fatp (retired record)	DRSC03054	3.12	14	6641	2834
